Compound potency records, mixed from different reports. Data source: NIAID ChemDB in PubChem.

Common to all: tests in culture; organism: HIV-2; cell line: CEM; measure: EC50

Rows are shuffled and stem from different studies. ECn is the concentration giving n% inhibition of infection, replication or growth.

{"compound": "Cc1ccc(C)c(C(C)S(=O)(=O)c2c(C)ccc[n+]2[O-])c1", "strain": "ROD", "method": "cytopathic effect", "value": ">20 µg/mL"}
{"compound": "COc1cc(OC[C@H]2CC[C@@H](COCc3ccccc3)O2)ncn1", "strain": "ROD", "method": "syncytia", "value": ">10 µM"}
{"compound": "Cc1cc(COC(CO)CO)c(F)cc1F", "method": "cytopathic effect / MTT", "value": ">500 µg/mL"}
{"compound": "CC1(CO)CCC(Cn2nnc3c(=O)[nH]c(N)nc32)C1(C)C", "method": "cytopathic effect", "value": "≥100 µg/mL"}
{"compound": "O=[N+]([O-])c1cc(COC(CO)CO)c(F)cc1F", "method": "cytopathic effect / MTT", "value": ">500 µg/mL"}
{"compound": "COc1ccc(OC)c(CS(=O)c2cccc[n+]2[O-])c1", "strain": "ROD", "method": "syncytia", "value": ">100 µg/mL"}
{"compound": "OC[C@H]1O[C@@H](c2cc(Cl)c(F)cc2F)C[C@@H]1O", "strain": "ROD", "method": "syncytia", "value": ">250 µM"}
{"compound": "CCCCO[C@]12CS(=O)(=O)O[C@@]13[C@@H](CN2)O[C@@H](n1cc(C)c(=O)[nH]c1=O)[C@@H]3O", "strain": "ROD", "value": ">125 µM"}
{"compound": "Nc1nc(OC[C@H]2CC[C@@H](COCc3ccccc3)O2)cc(OC[C@@H]2CC[C@H](COCc3ccccc3)O2)n1", "strain": "ROD", "method": "syncytia", "value": ">10 µM"}
{"compound": "O=C(O)c1ccccc1C(=O)NC12CC3CC(C1)CC(C(=O)O)(C3)C2", "strain": "ROD", "method": "syncytia", "value": ">100 µg/mL"}
{"compound": "Cc1cn([C@H]2C[C@H](F)[C@@H](CO)O2)c(=O)n(CCF)c1=O", "strain": "ROD", "method": "microscopy", "value": "90 µg/mL"}
{"compound": "CC1(C)[C@@H](CCO)C[C@H]1n1nnc2c(N)ncnc21", "method": "cytopathic effect", "value": ">20 µg/mL"}
{"compound": "Cc1cn([C@@H]2O[C@@H]3CN[C@@]4(OCC(C)(C)C)CS(=O)(=O)O[C@@]34[C@H]2O[Si](C)(C)C(C)(C)C)c(=O)[nH]c1=O", "strain": "ROD", "value": "<10 µM"}
{"compound": "O=[N+]([O-])c1ccc(O)c(CSc2cccc[n+]2[O-])c1", "strain": "ROD", "method": "syncytia", "value": ">20 µg/mL"}
{"compound": "O=S(=O)(Cc1c(Cl)c(Cl)c(Cl)c(Cl)c1Cl)c1cccc[n+]1[O-]", "strain": "ROD", "method": "cytopathic effect", "value": "1 µg/mL"}
{"compound": "COC(=O)C(c1ccccc1C)S(=O)c1cccc[n+]1[O-]", "strain": "ROD", "method": "syncytia", "value": ">20 µg/mL"}
{"compound": "O=c1ccn([C@H]2CCC[C@H]2CO)c(=O)[nH]1", "method": "cytopathic effect", "value": ">100 µg/mL"}
{"compound": "CC1(CO)CCC(Cn2nnc3c(Cl)nc(N)nc32)C1(C)C", "method": "cytopathic effect", "value": ">0.8 µg/mL"}
{"compound": "Cc1cn([C@@H]2O[C@H](CO)[C@@H](O)[C@@H]2O)c(=O)n(CCF)c1=O", "strain": "ROD", "method": "microscopy", "value": ">400 µg/mL"}
{"compound": "Cc1ccc(C(C)S(=O)c2cccc[n+]2[O-])cc1", "strain": "ROD", "method": "syncytia", "value": ">0.032 µg/mL"}
{"compound": "CC(=O)Oc1ccc(COP(=O)(OCc2ccc(OC(C)=O)cc2)OC[C@@H]2C=C[C@H](n3cc(C)c(=O)[nH]c3=O)O2)cc1", "value": "0.33 µM"}
{"compound": "O=C(O)C(O[C@@H]1CC[C@H](n2cc(F)c(=O)[nH]c2=O)C1)P(=O)(O)O", "strain": "ROD", "method": "syncytia", "value": ">250 µM"}
{"compound": "OCC(CO)OCc1cc(I)c(F)cc1F", "method": "cytopathic effect / MTT", "value": ">500 µg/mL"}
{"compound": "Cc1cn(C2OC(CO[Si](C)(C)C(C)(C)C)C3(OS(=O)(=O)C=C3N)C2O[Si](C)(C)C(C)(C)C)c(=O)n(CCCNC(=O)c2ccc(N=[N+]=[N-])cc2O)c1=O", "strain": "ROD", "method": "syncytia", "value": ">50 µM"}
{"compound": "N#C/C(=C/c1ccc(Cl)cc1Cl)Sc1cccc[n+]1[O-]", "strain": "ROD", "method": "syncytia", "value": ">0.8 µg/mL"}
{"compound": "CCCCCCCCCC[N+](C)(C)CCCNCc1c(O)cc2c(c1O)-c1cc(ccc1O)[C@H]1NC(=O)[C@@H]3NC(=O)C4NC(=O)[C@@H](Cc5ccc(c(Cl)c5)Oc5cc3cc(c5O)Oc3ccc(cc3Cl)[C@@H](O)[C@H](NC1=O)C(=O)N[C@@H]2C(=O)O)NC(=O)[C@H](N)c1ccc(O)c(c1)Oc1cc(O)cc4c1", "strain": "RF", "method": "syncytia", "value": "3.7 µM"}
{"compound": "Cc1cc(COCCO)c(F)cc1F", "method": "cytopathic effect / MTT", "value": ">500 µg/mL"}
{"compound": "CCCCCCCCCCCCCCC(=O)Oc1ccc(OP(=O)(OCc2ccc(OC(=O)CC(C)C)cc2)OP(=O)(O)OP(=O)(O)OC[C@@H]2C=C[C@H](n3cc(C)c(=O)[nH]c3=O)O2)cc1", "strain": "ROD", "method": "syncytia / visual reading", "value": "0.23 µM"}
{"compound": "CCCCCCCCCC(=O)Oc1ccc(COP(=O)(OCc2ccc(OC(=O)CCCCCCCCC)cc2)OP(=O)(O)OC[C@@H]2C=C[C@H](n3cc(C)c(=O)[nH]c3=O)O2)cc1", "strain": "ROD", "method": "syncytia / microscopy", "value": "0.32 µM"}
{"compound": "Cc1cn([C@@H]2O[C@@H]3CN[C@@]4(C(N)=O)CS(=O)(=O)O[C@@]34[C@H]2O)c(=O)[nH]c1=O", "strain": "ROD", "value": ">250 µM"}
{"compound": "Cc1cn([C@H]2C=C[C@@H](CO)O2)c(=O)[nH]c1=O", "strain": "ROD", "method": "syncytia / microscopy", "value": "2.3 µM"}
{"compound": "CCCCCCCCCCCCCCC(=O)Oc1ccc(OP(=O)(OCc2ccc(OC(=O)CCCC)cc2)OP(=O)(O)OP(=O)(O)OC[C@@H]2C=C[C@H](n3cc(C)c(=O)[nH]c3=O)O2)cc1", "strain": "ROD", "method": "syncytia / visual reading", "value": "0.32 µM"}
{"compound": "Cc1cc(C)c(CS(=O)c2cccc[n+]2[O-])c(C)c1", "strain": "EHO", "method": "cytopathic effect", "value": "2.1 µg/mL"}
{"compound": "Cc1cn([C@@H]2O[C@@H]3CN[C@@]4(OCC(C)(C)C)CS(=O)(=O)O[C@@]34[C@H]2O)c(=O)[nH]c1=O", "strain": "ROD", "value": ">250 µM"}
{"compound": "O=C1c2ccccc2C(=O)N1[C@@H]1CC2CC3CC(C2)C1C3", "strain": "ROD", "method": "syncytia", "value": ">4 µg/mL"}
{"compound": "CO[C@@H]1C[C@H](n2ccc3c(N)ncnc32)[C@@H](O)[C@H]1O", "strain": "ROD", "value": ">250 µg/mL"}
{"compound": "Cc1ccc(C)c(C(Cl)S(=O)(=O)c2cc(C)cc[n+]2[O-])c1", "strain": "EHO", "method": "cytopathic effect", "value": ">4 µg/mL"}
{"compound": "O=C1c2ccccc2C(=O)N1C12CC3CC(CC(C(=O)O)(C3)C1)C2", "strain": "ROD", "method": "syncytia", "value": ">20 µg/mL"}
{"compound": "C[C@H](Cn1cnc2c(N)ncnc21)OCP(=O)(O)O", "strain": "ROD", "method": "syncytia", "value": "1.3 µM"}
{"compound": "O=c1[nH]c(=O)n(C2C[C@H](CO)[C@@H](CO)C2)cc1I", "value": ">100 µg/mL"}
{"compound": "CCCCCCCCCCCCCCC(=O)Oc1ccc(COP(=O)(Oc2ccc(OC(=O)CCC(=O)OCCOCCOCCOC)cc2)OP(=O)(O)OP(=O)(O)OC[C@@H]2C=C[C@H](n3cc(C)c(=O)[nH]c3=O)O2)cc1", "strain": "ROD", "method": "syncytia / visual reading", "value": "0.43 µM"}
{"compound": "Cc1cn([C@@H]2O[C@@H]3CN[C@@]4(OCCOc5ccccc5)CS(=O)(=O)O[C@@]34[C@H]2O)c(=O)[nH]c1=O", "strain": "ROD", "value": ">250 µM"}
{"compound": "NC/C=C/Cn1ccc(=O)[nH]c1=O", "method": "syncytia", "value": ">100 µM"}
{"compound": "C=C(C)[C@@H]1CC[C@]2(C(=O)NCCCCCCCC(=O)N[C@@H](CC(C)C)[C@@H](O)CC(=O)O)CC[C@]3(C)[C@H](CC[C@@H]4[C@@]5(C)CC[C@H](O)C(C)(C)[C@@H]5CC[C@]43C)[C@@H]12", "strain": "ROD", "method": "cytopathic effect / MTT", "value": ">1 µM"}
{"compound": "Nc1ccn(CCCC(O)CF)c(=O)n1", "strain": "ROD", "method": "cytopathic effect", "value": ">100 µg/mL"}
{"compound": "CCCC(Sc1cccc[n+]1[O-])c1cc(C)ccc1C", "strain": "ROD", "method": "syncytia", "value": ">4 µg/mL"}
{"compound": "Cc1cn([C@@H]2C[C@H](OC(C(=O)O)P(=O)(O)O)[C@@H](O)[C@H]2O)c(=O)[nH]c1=O", "strain": "ROD", "method": "syncytia", "value": ">250 µM"}
{"compound": "CC[C@H](C)[C@H](NC(=O)c1ccccc1SSc1ccccc1C(=O)N[C@H](C(=O)O)[C@@H](C)CC)C(=O)O", "method": "XTT", "value": "4.7 µM"}
{"compound": "O=c1[nH]c(=O)n([C@H]2CCC[C@@H]2CO)cc1I", "method": "cytopathic effect", "value": ">100 µg/mL"}
{"compound": "Cc1cn(C2OC(CO[Si](C)(C)C(C)(C)C)C3(OS(=O)(=O)C=C3N)C2O[Si](C)(C)C(C)(C)C)c(=O)n(CC(=O)N(CCCl)CCCl)c1=O", "strain": "ROD", "method": "syncytia", "value": "≥125 µM"}
{"compound": "Cc1ccc(CSc2ccccn2)cc1C", "strain": "ROD", "method": "syncytia", "value": ">4 µg/mL"}
{"compound": "Cc1cn(C2OC(CO[Si](C)(C)C(C)(C)C)C3(OS(=O)(=O)C=C3N)C2O[Si](C)(C)C(C)(C)C)c(=O)n(/C=C/CO)c1=O", "strain": "ROD", "method": "syncytia", "value": ">2 µM"}
{"compound": "O=C1c2cccc([N+](=O)[O-])c2C(=O)N1C1C2CC3CC(C2)CC1C3", "strain": "ROD", "method": "syncytia", "value": ">4 µg/mL"}
{"compound": "O=c1[nH]c(=O)n(C[C@H]2CCC[C@H]2CO)cc1I", "method": "cytopathic effect", "value": ">100 µg/mL"}
{"compound": "O=C1NCC2(C(=O)C3C=CC=CC13)C1CC3CC(C1)CC2C3", "strain": "ROD", "method": "syncytia", "value": ">20 µg/mL"}
{"compound": "CCCCCCCCCCCC(Sc1cccc[n+]1[O-])c1cc(C)ccc1C", "strain": "ROD", "method": "syncytia", "value": ">4 µg/mL"}
{"compound": "CC(C)CS[C@@H]1C[C@H](n2cnc3c(N)ncnc32)[C@@H](O)[C@H]1O", "strain": "ROD", "method": "cytopathic effect / syncytia / trypan blue", "value": ">50 µg/mL"}
{"compound": "O=C1CCCC(C23CC4CC(C2)CC(N2C(=O)c5ccccc5C2=O)(C4)C3)C1", "strain": "ROD", "method": "syncytia", "value": ">4 µg/mL"}
{"compound": "Cc1ccccc1C(C#N)S(=O)c1cccc[n+]1[O-]", "strain": "ROD", "method": "syncytia", "value": ">0.8 µg/mL"}
{"compound": "CC1(C)[C@@H](CCO)C[C@H]1n1nnc2c(N)nc(N)nc21", "method": "cytopathic effect", "value": ">20 µg/mL"}
{"compound": "CCCCCCCCCC[N+](C)(C)CCCNCc1c(O)cc2c(c1O)-c1cc(ccc1O)[C@H]1NC(=O)[C@@H]3NC(=O)C4NC(=O)[C@@H](Cc5ccc(c(Cl)c5)Oc5cc3cc(c5O)Oc3ccc(cc3Cl)[C@@H](O)[C@H](NC1=O)C(=O)N[C@@H]2C(=O)O)NC(=O)[C@H](N)c1ccc(O)c(c1)Oc1cc(O)cc4c1", "strain": "RF", "method": "syncytia", "value": "3.7 µM"}
{"compound": "CC1(C)[C@@H](CCO)C[C@H]1n1cnc2c(=O)[nH]c(N)nc21", "method": "cytopathic effect", "value": ">100 µg/mL"}
{"compound": "O=C1c2ccccc2C(=O)N1CCCC1C2CC3CC(C2)CC1C3", "strain": "ROD", "method": "syncytia", "value": ">4 µg/mL"}
{"compound": "Nc1ccn(C(CF)CCCO)c(=O)n1", "strain": "ROD", "method": "cytopathic effect", "value": ">100 µg/mL"}
{"compound": "CC1(CO)CCC(Cn2nnc3c(N)nc(N)nc32)C1(C)C", "method": "cytopathic effect", "value": "80 µg/mL"}
{"compound": "Nc1nc(Cl)cc(OC[C@H]2CC[C@@H](COCc3ccccc3)O2)n1", "strain": "ROD", "method": "syncytia", "value": ">50 µM"}
{"compound": "Cc1ccccc1C(C(N)=O)S(=O)c1cccc[n+]1[O-]", "strain": "ROD", "method": "syncytia", "value": ">100 µg/mL"}
{"compound": "CC(=O)Oc1ccccc1COP(=O)(OCc1ccccc1OC(C)=O)OC[C@@H]1C=C[C@H](n2cc(C)c(=O)[nH]c2=O)O1", "value": "0.22 µM"}
{"compound": "O=S(=O)(Cc1cccc(Br)c1)c1cccc[n+]1[O-]", "strain": "ROD", "method": "syncytia", "value": "≥4 µg/mL"}
{"compound": "Nc1ncnc2c1ncn2C/C=C/CN1C(=O)c2ccccc2C1=O", "method": "syncytia", "value": ">20 µM"}
{"compound": "Cc1cn([C@H]2C[C@H](O)[C@@H](CO)O2)c(=O)n(CCF)c1=O", "strain": "ROD", "method": "microscopy", "value": ">400 µg/mL"}
{"compound": "Nc1ncnc2c1ncn2C/C=C\\CN1C(=O)c2ccccc2C1=O", "method": "syncytia", "value": ">100 µM"}
{"compound": "CC(c1ccc(Cl)cc1)S(=O)c1cccc[n+]1[O-]", "strain": "ROD", "method": "syncytia", "value": ">0.8 µg/mL"}
{"compound": "O=C1c2ccccc2C(=O)N1C/C=C/Cn1cnc2c(Cl)ncnc21", "method": "syncytia", "value": ">100 µM"}
{"compound": "CCCCCCCCCC(=O)Oc1ccc(COP(=O)(OCCC#N)OP(=O)(O)OC[C@@H]2C=C[C@H](n3cc(C)c(=O)[nH]c3=O)O2)cc1", "strain": "ROD", "method": "syncytia / microscopy", "value": "5 µM"}
{"compound": "O=c1[nH]c(=O)n([C@@H]2C[C@H](CO)C[C@H]2CO)cc1I", "value": ">100 µg/mL"}
{"compound": "Nc1cc(OC[C@@H]2O[C@H](CO)[C@@H](O)[C@H]2O)nc(N)n1", "strain": "ROD", "method": "syncytia", "value": ">100 µM"}
{"compound": "CO[C@@H]1C[C@H](n2ncc3c(N)ncnc32)[C@@H](O)[C@H]1O", "strain": "ROD", "value": ">250 µg/mL"}
{"compound": "O=c1ccn([C@@H]2C[C@H](CO)C[C@H]2CO)c(=O)[nH]1", "value": ">100 µg/mL"}